Measured values from several laboratories, pooled; numbers as filed in NIAID ChemDB.

Common to all: growth or infection tests; organism: Mycobacterium tuberculosis

Conditions beyond the fields shown may differ between rows. An empty or dashed field is not shown. MIC bound: limit read from a one-dose screen. A number after MIC or MFC names an inhibition level or a share of isolates. Two numbers with a dash give a range or band. Fold resistance: result on the changed form divided by that on wild type. Percent inhibition refers to the dose given; in toxicity tests it is the harm to the cells. ECn is the concentration giving n% inhibition of infection, replication or growth.

structure,strain or isolate,mutations,method,setting,endpoint,tested at,result
CCc1nc2ccccc2n1CCCCOc1ccc(C)c(Cl)c1,H37Rv,QcrB M342T,turbidity / fluorescence,,fold resistance,,8.9
O=[N+]([O-])c1cn2c(n1)OC[C@@H](OCc1ccc(C#Cc3ccc(C(F)(F)F)cn3)nc1)C2,,,resazurin,,MIC90,,0.26 µM
O=C(SCC1CS1)c1ccc(Cl)cc1,H37Rv,,,,MIC,,50 µg/mL
CC(C)C[C@@H]1NC(=O)[C@H](Cc2c[nH]c3ccccc23)NC(=O)[C@@H](CCCCN)NC(=O)[C@H](CC(N)=O)NC(=O)[C@H](C(C)C)NC(=O)[C@@H](CC(C)C)NC1=O,H37Ra,,turbidity,,MIC,,0.37 µM
OC[C@@H](O)[C@@H](O)[C@H](O)c1cnc(C[C@H](O)[C@H](O)CO)cn1,H37Rv,,BACTEC,,inhibition,12.5 µg/mL,25%
CCn1c(-c2ccc(N=Nc3c(C)[nH]n(-c4ccccc4)c3=O)cc2)n[nH]c1=S,H37Rv,,,,inhibition,12.5 µg/mL,73%
O=[N+]([O-])c1cn2c(n1)OC[C@@H](OCc1ccc(C#Cc3ccc(C(F)(F)F)cc3)nc1)C2,,,resazurin,,MIC90,,0.04 µM
CC(C)=CCc1cc(/C=C/C(=O)c2cc(CC=C(C)C)c(O)cc2O)ccc1O,MTCS2,,resazurin,,MIC,,19.53 µg/mL
Cc1[nH][nH]c(=O)c1N=Nc1ccc(C(=O)N/N=C/c2ccc(F)cc2)cc1,H37Rv,,,,inhibition,12.5 µg/mL,5%
O=[N+]([O-])c1cn2c(n1)OC[C@@H](OCc1ccc(Oc3ccc(F)cc3)cn1)C2,,,resazurin,,MIC90,,0.09 µM
N/C(COc1ccc([N+](=O)[O-])cc1)=N/NC(=O)c1ccncc1,16 isolates,,,,MIC90,,12.5 µg/mL
NC[C@H]1O[C@H](O[C@H]2[C@H](O)[C@@H](O[C@H]3O[C@H](CO)[C@@H](O)[C@H](N)[C@H]3O)[C@H](N)C[C@@H]2N)[C@H](O)[C@@H](O)[C@@H]1O,H37Rv,,,,MIC,,2 µg/mL
O=C(CCCC(=O)Nc1ccc2[nH]c3ccccc3c(=O)c2c1)Nc1ccc2[nH]c3ccccc3c(=O)c2c1,H37Rv,,BACTEC,,MIC bound,,>12.5 µg/mL
O=C(NCc1ccc(N2CCN(Cc3ccccc3)CC2)cc1)c1ccc([N+](=O)[O-])o1,UT30,,,,MIC,,0.006 µg/mL
Cc1ccc2oc(=S)n(-c3ccc(F)cc3)c(=S)c2c1,My 331/88,,,21 d,MIC,,8 µM
O=[N+]([O-])c1cn2c(n1)OC[C@@H](OCc1ccc(N3CCN(c4ccc(C(F)(F)F)cn4)CC3)cc1)C2,,,resazurin,,MIC90,,0.02 µM
FC(F)(F)c1ccc(-n2c(=S)oc3ccc(Cl)cc3c2=S)cc1,My 331/88,,,14 d,MIC,,4 µM
CC1=N/C(=C\c2ccc(N)cc2)C(=O)N1Nc1nnc(NN2C(=O)/C(=C\c3ccc(N)cc3)N=C2C)c2ccccc12,H37Rv,,BACTEC,,MIC bound,,≤12.5 µg/mL
COc1ccc2oc(=O)n(-c3ccc(Br)cc3)c(=S)c2c1,My 331/88,,,14 d,MIC,,32 µM
O=C1NC(Nc2ccc(Cl)cc2)=N/C1=C\c1ccccc1Cl,H37Rv,,,,inhibition,12.5 µg/mL,99%
COc1ccccc1-c1cnc(N)c(C#N)n1,H37Rv,,BACTEC,,MIC,,≥12.5 µg/mL
O=c1oc2ccc(Br)cc2c(=S)n1-c1ccccc1,My 331/88,,,21 d,MIC,,1 µM
C1CCNCC1.S=C(S)N1CCCCC1,PZA-R,,,,MIC,,3.1 µg/mL
CC(C)C[C@@H]1NC(=O)[C@H](Cc2c[nH]c3ccccc23)NC(=O)[C@@H](CCCN)NC(=O)[C@H](CC(N)=O)NC(=O)[C@H](C(C)C)NC(=O)[C@@H](CC(C)C)NC1=O,CDC1551,,turbidity,,MIC90,,2.97 µM
CN(C)c1ccc(/C=N/N=C2c3ccccc3-c3ccccc32)c(Cl)c1,H37Rv,,BACTEC,,MIC bound,,>12.5 µg/mL
CCOC(=O)N1CCN(c2ccc(C3CC(c4ccc([N+](=O)[O-])o4)=NO3)cc2)CC1,UT18,,,,MIC,,0.0008 µg/mL
CO[C@H]1/C=C/O[C@@]2(C)Oc3c(C)c(O)c4c(=O)c(c5oc6cc(N7CCN(C)CC7)cc(=O)c6nc5c4c3=C2O)NC(=O)/C(C)=C\C=C\[C@H](C)[C@H](O)[C@@H](C)[C@@H](O)[C@@H](C)[C@H](OC(C)=O)[C@@H]1C,H37Rv,,,,MIC,,0.017 µg/mL
Cc1[nH][nH]c(=O)c1N=Nc1ccc(-c2n[nH]c(=S)o2)cc1,H37Rv,,,,MIC,,>12.5 µg/mL
CO[C@H]1/C=C/O[C@@]2(C)Oc3c(C)c(O)c4c(O)c(c(/C=N/N5CCN(C)CC5)c(O)c4c3C2=O)NC(=O)/C(C)=C\C=C\[C@H](C)[C@H](O)[C@@H](C)[C@@H](O)[C@@H](C)[C@H](OC(C)=O)[C@@H]1C,H37Rv,,turbidity,,EC50,,0.4 µM
CC1COc2c(N3CCN(C)CC3)c(F)cc3c(=O)c(C(=O)O)cn1c23,90-0145 (drug-susceptible),,,,MIC,,0.5 µg/mL
O=C(SCC1CS1)c1ccco1,H37Rv,,,,MIC,,0.39 µg/mL
CC(C)C[C@@H]1NC(=O)[C@H](Cc2c[nH]c3ccccc23)NC(=O)[C@@H](CCCN=C(N)N)NC(=O)[C@H](CC(N)=O)NC(=O)[C@H](C(C)C)NC(=O)[C@@H](CC(C)C)NC1=O,HN353,,turbidity,,EC50,,0.59 µM
O=[N+]([O-])c1cn2c(n1)OC[C@@H](OCc1ccc(Oc3ccc(C(F)(F)F)nc3)nc1)C2,,,low oxygen,,MIC90,,8.6 µM
CCNC(=S)N/N=C(\c1ccccc1)c1ccccn1,H37Rv,,BACTEC,,MIC bound,,>12.5 µg/mL
CC(=O)OCC(CSCC(C)SC(C)=O)SC(C)=O,H37Rv,,,,MIC,,6.25 µg/mL
CCc1nc2ccc(C)cc2n1CCCCOc1ccccc1,H37Rv,WT,turbidity / fluorescence,,MIC90,,1.3 µM
O=C(O)c1cc(N=C=S)ccc1-c1c2ccc(=O)cc-2oc2cc(O)ccc12,H37Rv,,BACTEC,,MIC bound,,>12.5 µg/mL
CC(C)C[C@@H]1NC(=O)[C@H](Cc2c[nH]c3ccccc23)NC(=O)[C@H](CCCCN)NC(=O)[C@H](CC(N)=O)NC(=O)[C@H](C(C)C)NC(=O)[C@@H](CC(C)C)NC1=O,CDC1551,,turbidity,,EC50,,>30 µM
CC1(C)C=Cc2c(ccc(C(=O)/C=C/c3ccc(O)cc3)c2O)O1,MTCS1,,resazurin,,MIC,,39.06 µg/mL
COc1ccc2oc(=O)n(-c3ccc(F)cc3)c(=S)c2c1,My 331/88,,,21 d,MIC,,16 µM
NNc1ccc2cccc(O)c2n1,H37Rv,,BACTEC,,MIC bound,,≤12.5 µg/mL
CCOC(=O)/C(N=Nc1ccc(-c2n[nH]c(=O)n2-c2ccccc2)cc1)=C(\C)O,H37Rv,,,,EC50,,>12.5 µg/mL
Cc1ccc(OC/C(N)=N\NC(=O)c2ccncc2)cc1,H37Rv,,,,MIC,,6.25 µg/mL
CCc1nc2ccc(C)cc2n1CCCCNc1cccc(C(F)(F)F)c1,H37Rv,,turbidity / fluorescence,,MIC99,,0.55 µM
CC(C)N=c1cc2n(-c3ccc(Cl)cc3)c3ccccc3nc-2cc1Nc1ccc(Cl)cc1,90-0240 (drug-susceptible),,,,MIC,,0.4 µg/mL
Oc1ccc2ccccc2c1/C=N/Nc1ccc2ccccc2n1,H37Rv,,,,MIC,,12.5 µg/mL
O=[N+]([O-])c1cn2c(n1)OC[C@@H](OCc1ccc(Oc3ccc(OC(F)(F)F)cc3)cn1)C2,,,resazurin,,MIC90,,0.085 µM
CCOc1nc(C(=O)O)cc2ccsc12,H37Rv,,BACTEC,,inhibition,12.5 µg/mL,2%
CCc1cc(C(N)=S)ccn1,90-0216 (drug-susceptible),,,,MIC,,0.25 µg/mL
CO[C@H]1/C=C/O[C@@]2(C)Oc3c(C)c(O)c4c(=O)c(c5oc6cc(N7CCCN(C)CC7)cc(=O)c6nc5c4c3=C2O)NC(=O)/C(C)=C\C=C\[C@H](C)[C@H](O)[C@@H](C)[C@@H](O)[C@@H](C)[C@H](OC(C)=O)[C@@H]1C,H37Rv,,,,MIC,,0.15 µg/mL
O=C1NC(Nc2ccccc2)=N/C1=C\c1c(Cl)cccc1Cl,H37Rv,,,,inhibition,12.5 µg/mL,1%
O=[N+]([O-])c1cn2c(n1)OC[C@@H](OCc1ccc(N3CCN(S(=O)(=O)c4ccc(OC(F)(F)F)cc4)CC3)cc1)C2,,,low oxygen,,MIC90,,11 µM
O=C1C(CO)=C[C@@H](O)[C@@H]2O[C@H]12,H37Rv,,BACTEC,,MIC bound,,>12.5 µg/mL
CO[C@H]1/C=C/O[C@@]2(C)Oc3c(C)c(O)c4c(=O)c(c5oc6cc(N7CCN(C(C)(C)C)CC7)cc(=O)c6nc5c4c3=C2O)NC(=O)/C(C)=C\C=C\[C@H](C)[C@H](O)[C@@H](C)[C@@H](O)[C@@H](C)[C@H](OC(C)=O)[C@@H]1C,H37Rv,,,,MIC,,0.008 µg/mL
CCc1nc2ccc(C)cc2n1CCCCNc1ccc(OC)cc1,H37Rv,,turbidity / fluorescence,,MIC99,,0.65 µM
O=[N+]([O-])c1cn2c(n1)OC[C@@H](OCc1ccc(Cc3ccc(F)cc3)cc1)C2,,,resazurin,,MIC90,,0.06 µM
O=C1C=C(N2CCN(c3ccccc3)CC2)c2ccccc2C1=O,H37Rv,,resazurin,,MIC bound,,>6.25 µg/mL
N/C(COc1ccc(Cl)cc1)=N/NC(=O)c1ccncc1,16 isolates,,,,MIC50,,3.12 µg/mL
O=C1CN(/N=C/c2ccc(-c3cccc(C(F)(F)F)c3)o2)C(=O)N1,H37Rv,,BACTEC,,MIC bound,,>12.5 µg/mL
O=C1NC(=NCc2ccc(Cl)cc2)N/C1=C\c1ccccc1Cl,H37Rv,,,,inhibition,12.5 µg/mL,45%
CCCCOP(=S)(OCCCC)SC1(SC)SSC=C1CC(C)(C)C,H37Rv,,BACTEC,,inhibition,12.5 µg/mL,12%
O=[N+]([O-])c1ccc(C2=NOC(c3ccc(N4CCN(Cc5ccccc5)CC4)cc3)C2)o1,CDC1551,,,,MIC,,0.012 µg/mL
O=C1OCC/C1=C1\NCCNC1=O,H37Rv,,BACTEC,,MIC bound,,>12.5 µg/mL
COC(=O)SCC1CS1,H37Rv,,,,MIC,,6.25–12.5 µg/mL
CCCCN1CCN(c2cc(=O)c3nc4c(oc3c2)c2c(=O)c3c(O)c(C)c5c(c34)=C(O)[C@@](C)(O/C=C/[C@H](OC)[C@@H](C)[C@@H](OC(C)=O)[C@H](C)[C@H](O)[C@H](C)[C@@H](O)[C@@H](C)/C=C/C=C(/C)C(=O)N2)O5)CC1,H37Rv,,,,MIC,,0.035 µg/mL
CC(C)=CC[C@H](O)C1=CC(=O)c2c(O)ccc(O)c2C1=O,RMP-R,,,,MIC,,6.4 µg/mL
O=C(OCC(S)CS)c1ccc(Cl)cc1,H37Rv,,,,MIC,,12.5 µg/mL
Fc1ccc2oc(=S)n(-c3ccc(Br)cc3)c(=S)c2c1,My 331/88,,,21 d,MIC,,2 µM
C=CCn1c(-c2ccc(N=Nc3c(C)[nH][nH]c3=O)cc2)n[nH]c1=S,H37Rv,,,,MIC,,>12.5 µg/mL
C=CCN(CC=C)C1C(O)CCOC1OC,H37Rv,,BACTEC,,inhibition,12.5 µg/mL,17%
CCc1nc2ccccc2n1CCCCOc1ccc(Cl)cc1,H37Rv,QcrB M342T,turbidity / fluorescence,,fold resistance,,>7.1
CC(=O)OCC(S)CS,H37Rv,,,,MIC,,3.126–6.25 µg/mL
CCCCCCOC(=O)c1[nH]c(=O)n(CCCCCC)c(=O)c1N,H37Rv,,resazurin,,MIC bound,,>6.25 µg/mL
CC[C@@H](CO)NCCN[C@@H](CC)CO,90-0145 (drug-susceptible),,,,MIC,,1 µg/mL
COc1ccc2oc(=O)n(-c3ccc(C(F)(F)F)cc3)c(=S)c2c1,My 331/88,,,14 d,MIC,,32 µM
N[C@@H]1CONC1=O,90-0216 (drug-susceptible),,,,MIC,,75 µg/mL
CCc1nc2ccccc2n1CCCCOc1cccc(C)c1,H37Rv,Rv1339 V90M,turbidity / fluorescence,,MIC90,,6.2 µM
COc1ccc(-c2c(C#N)c(O)n(NS(=O)(=O)c3ccc(C)cc3)c(=O)c2C#N)cc1,H37Rv,,resazurin,,MIC bound,,>6.25 µg/mL
CC1COc2c(N3CCN(C)CC3)c(F)cc3c(=O)c(C(=O)O)cn1c23,SMI 20,,agar,,MIC,,0.5 µg/mL

8 of the rows above, restated:

O=C1NC(Nc2ccc(Cl)cc2)=N/C1=C\c1ccccc1Cl ; strain or isolate: H37Rv ; endpoint: inhibition ; tested at: 12.5 µg/mL ; result: 99%
CCc1nc2ccc(C)cc2n1CCCCNc1ccc(OC)cc1 ; strain or isolate: H37Rv ; method: turbidity / fluorescence ; endpoint: MIC99 ; result: 0.65 µM
OC[C@@H](O)[C@@H](O)[C@H](O)c1cnc(C[C@H](O)[C@H](O)CO)cn1 ; strain or isolate: H37Rv ; method: BACTEC ; endpoint: inhibition ; tested at: 12.5 µg/mL ; result: 25%
O=[N+]([O-])c1cn2c(n1)OC[C@@H](OCc1ccc(Oc3ccc(OC(F)(F)F)cc3)cn1)C2 ; method: resazurin ; endpoint: MIC90 ; result: 0.085 µM
CCCCCCOC(=O)c1[nH]c(=O)n(CCCCCC)c(=O)c1N ; strain or isolate: H37Rv ; method: resazurin ; endpoint: MIC bound ; result: >6.25 µg/mL
COc1ccc2oc(=O)n(-c3ccc(C(F)(F)F)cc3)c(=S)c2c1 ; strain or isolate: My 331/88 ; setting: 14 d ; endpoint: MIC ; result: 32 µM
Fc1ccc2oc(=S)n(-c3ccc(Br)cc3)c(=S)c2c1 ; strain or isolate: My 331/88 ; setting: 21 d ; endpoint: MIC ; result: 2 µM
CC1COc2c(N3CCN(C)CC3)c(F)cc3c(=O)c(C(=O)O)cn1c23 ; strain or isolate: SMI 20 ; method: agar ; endpoint: MIC ; result: 0.5 µg/mL